A mixed list of measured activities; the numbers were collected in NIAID ChemDB.

Common to all: whole-cell or culture tests; organism: Herpes simplex virus 2; method: cytopathic effect; measure: EC50

ECn: concentration that inhibits the pathogen or its effect by n%. Blank or dashed fields: not listed here. Rows are shuffled and stem from different studies.

structure,strain,cell line,value
CCc1cn([C@H]2C[C@H](O)[C@@H](CO)O2)c(N)nc1=O,LYONS,PRK,>400 µg/mL
CCOC(=O)C1=CSc2nnc(-c3cn(-c4ccccc4)nc3-c3ccccc3)n2N=C1N,G,HEL,>16 µg/mL
Nc1ccn(CC[C@H](O)CCO)c(=O)n1,LYONS,E6SM,>400 µg/mL
O=C(Nn1c(-c2cn(-c3ccccc3)nc2-c2ccccc2)n[nH]c1=S)c1ccccc1,G,HEL,>16 µg/mL
Nc1ncnc2c1ncn2[C@@H]1O[C@H](CO)[C@@H](O)[C@H]1OP(=O)(O)OC[C@H]1O[C@@H](n2cnc3c(N)ncnc32)[C@H](OP(=O)(O)OC[C@H]2O[C@@H](n3cc(/C=C/Br)c(=O)[nH]c3=O)C[C@@H]2O)[C@@H]1O,LYONS,PRK,70 µg/mL
S=c1[nH]n2c(-c3cn(-c4ccccc4)nc3-c3ccccc3)nnc2s1,G,HEL,>80 µg/mL
Nc1nc2c(ncn2C[C@H](CO)OCP(=O)(O)O)c(=O)[nH]1,G 196 LYONS,E6SM,1.4 µM
Nc1nc(=O)n([C@H]2C[C@H](O)[C@@H](CO)O2)cc1/C=C\Cl,G,PRK,20 µg/mL
CS(=O)(=O)Cc1cn([C@H]2C[C@H](O)[C@@H](CO)O2)c(=O)[nH]c1=O,LYONS G 196,PRK,>400 µg/mL
Nc1nc(N)c2ncn(C[C@@H](CF)OCP(=O)(O)O)c2n1,G 196 LYONS,E6SM,≥600 µM
Nc1ncnc2c1ncn2[C@@H]1O[C@H](CO)[C@@H](O)[C@@H]1O,,HEP II,3.2 µg/mL
CCCc1cn([C@H]2C[C@H](O)[C@@H](CO)O2)c(=O)[nH]c1=O,G 196 LYONS,E6SM,770 µM
Nc1nc(N)c2ncn(C[C@H](CO)OCP(=O)(O)O)c2n1,G 196 LYONS,E6SM,6.3 µM
Nc1ncnc2c1ncn2C[C@@H](CO)OCP(=O)(O)O,G,ESM,0.02 µg/mL
Nc1ncnc2c1ncn2CC[C@H](O)CCO,LYONS,E6SM,>400 µg/mL
O=c1[nH]c(=O)n([C@H]2C[C@H](O)[C@@H](CO)O2)cc1C1CC1,G 196 LYONS,E6SM,91 µM
Cc1cn(CC[C@H](O)CCO)c(=O)[nH]c1=O,G,E6SM,>400 µg/mL
CC(C)(C)c1cn([C@H]2C[C@H](O)[C@@H](CO)S2)c(=O)[nH]c1=O,G 196 LYONS,E6SM,497 µM
Nc1ncnc2c1ncn2C[C@@H](CF)OCP(=O)(O)O,G 196 LYONS,E6SM,≥656 µM
O=c1[nH]c(=O)n([C@H]2C[C@H](O)[C@@H](CO)S2)cc1C1CCCCC1,G 196 LYONS,E6SM,800 µM
Nc1nc2c(ncn2COC2COP(=O)(O)OC2)c(=O)[nH]1,,VERO,50 µM
Nc1nc2c(ncn2C[C@@H](CO)OCP(=O)(O)O)c(=O)[nH]1,G 196 LYONS,E6SM,1.9 µM
CCc1cn([C@H]2C[C@H](O)[C@@H](CO)O2)c(=O)[nH]c1=O,LYONS,PRK,2 µg/mL
O=C(/C=C/c1ccc(O)c(O)c1)O[C@@H]1CC(O)(C(=O)O)C[C@@H](OC(=O)/C=C/c2ccc(O)c(O)c2)C1O,MS,VERO,>100 µM
Nc1nc2c(nc(N3CCCCC3)n2COCCO)c(=O)[nH]1,,PRK,150 µg/mL
Nc1nc2c(ncn2COCCOP(=O)(O)O[C@@H]2[C@H](O)[C@@H](COP(=O)(O)O[C@@H]3[C@H](O)[C@@H](CO)O[C@H]3n3cnc4c(N)ncnc43)O[C@H]2n2cnc3c(N)ncnc32)c(=O)[nH]1,LYONS,PRK,0.7 µg/mL
Nc1nc2c(ncn2/C=C2/CC2(CO)CO)c(=O)[nH]1,,HFF,>404 µM
Nc1nc(=O)n([C@H]2C[C@H](O)[C@@H](CO)O2)cc1/C=C/Cl,LYONS,PRK,15 µg/mL
C=Cc1cc([C@H]2C[C@H](O)[C@@H](CO)O2)c(F)cc1F,196,E6SM,>400 µg/mL
CCOC(=O)C1Sc2nnc(-c3cn(-c4ccccc4)nc3-c3ccccc3)n2NC1=O,G,HEL,>80 µg/mL
CO[C@H](CO)[C@@H](O)CCn1ccc(N)nc1=O,G,E6SM,>400 µg/mL
CN(C)c1nc2c(=O)[nH]c(N)nc2n1COCCO,,PRK,250 µg/mL
CC(C)(C)c1cn([C@H]2C[C@H](O)[C@@H](CO)O2)c(=O)[nH]c1=O,G 196 LYONS,E6SM,>1500 µM
OC[C@H]1O[C@@H](c2cc(C#CBr)c(F)cc2F)C[C@@H]1O,G,E6SM,>400 µg/mL
C[C@@H](Cn1cnc2c(N)nc(N)nc21)OCP(=O)(O)O,G 196 LYONS,E6SM,232 µM
Nc1nc2c(ncn2COCCO)c(=O)[nH]1,16052 8708 (acyclovir-resistant),HFF,10 µg/mL
Cc1nc2c(=O)[nH]c(N)nc2n1COCCO,,PRK,0.5 µg/mL

2 of the rows above, restated:

structure,strain,cell line,value
Nc1nc2c(ncn2C[C@H](CO)OCP(=O)(O)O)c(=O)[nH]1,G 196 LYONS,E6SM,1.4 µM
Nc1ncnc2c1ncn2C[C@@H](CO)OCP(=O)(O)O,G,ESM,0.02 µg/mL